A mixed list of measured activities; the numbers were collected in NIAID ChemDB.

Shared fields: tests on isolated targets; agent: HIV-1; protein: Protease

Inhibition is in % at the dose shown (toxicity tests: loss of growth or viability). Blank or dashed fields: not listed here. ICn: concentration for n% inhibition. Fold resistance has wild type as its base. Rows are shuffled and stem from different studies.

structure | strain or isolate | method | dose | endpoint | mutations | result
CC(C)[C@H](NC(=O)[C@H](C)NC(=O)[C@H](CO)NC(=O)OCc1ccccc1)C(=O)N[C@@H](Cc1ccccc1)[C@@H](O)[C@H](O)[C@H](Cc1ccccc1)NC(=O)[C@@H](NC(=O)[C@H](C)NC(=O)[C@H](CO)NC(=O)OCc1ccccc1)C(C)C |  |  |  | fold resistance | PR-V82F | 3.41
CC(C)[C@H](NC(=O)[C@H](C)NC(=O)OCc1ccccc1)C(=O)N[C@@H](Cc1ccccc1)[C@@H](O)[C@H](O)[C@H](Cc1ccccc1)NC(=O)[C@@H](NC(=O)[C@H](C)NC(=O)OCc1ccccc1)C(C)C |  |  |  | fold resistance | PR-V82F | 4
CC(C)COC(=O)C(Cc1ccncc1)NC(=O)C(=O)NC(Cc1ccncc1)C(=O)OCC(C)C |  | absorbance | 10 µM | inhibition |  | <10%
Nc1cccc(C(=O)N[C@H](Cc2ccccc2)C[C@H](O)[C@H](Cc2ccccc2)NC(=O)c2cccc(N)c2)c1 |  | substrate cleavage |  | fold resistance | PR-V821 | 16
Cc1cccc(OCC(=O)N[C@@H](CC(N)=O)C(=O)N[C@@H](Cc2ccccc2)[C@H](O)C(=O)N2CSC(C)(C)[C@H]2C(=O)NC(C)(C)C)c1C |  |  | 0.05 µM | inhibition |  | 97.1%
O=C([C@@H]1O[C@@H]2CN(Cc3ccccc3)C(=S)[C@H]1O2)N1CCOCC1 |  | FRET | 10 µM | inhibition |  | 0%
O=C(CCC(O)CCC(=O)N[C@@H](Cc1ccccc1)C(=O)OCc1ccccc1)N[C@@H](Cc1ccccc1)C(=O)OCc1ccccc1 |  | absorbance | 10 µM | inhibition |  | <10%
CC(C)C[C@H](NC(=O)[C@@H](NC(=O)CCCCCCCCCCCCCCC(=O)N[C@@H](CC(N)=O)C(=O)N[C@@H](CC1CCCCC1)C(=O)O)C(C)O)C(=O)N[C@@H](Cc1ccccc1)C(N)=O |  |  |  | IC50 |  | 3.7 µM
CC(C)[C@H](NC(=O)[C@H](C)NC(=O)OCc1ccccc1)C(=O)N[C@@H](Cc1ccccc1)[C@@H](O)[C@H](O)[C@H](Cc1ccccc1)NC(=O)[C@@H](NC(=O)[C@H](C)NC(=O)OCc1ccccc1)C(C)C |  |  |  | fold resistance | PR-V82A | 3
CCCC[C@H](NC(=O)c1cnc2ccccc2n1)C(=O)CC(Cc1ccc2ccccc2c1)C(=O)N[C@@H](CCC(N)=O)C(N)=O |  | fluorescence |  | IC10 |  | 7 µM
CC(C)COC(=O)C(Cc1ccc(F)cc1)NC(=O)C(=O)NC(Cc1ccc(F)cc1)C(=O)OCC(C)C |  | absorbance | 10 µM | inhibition |  | 30%
C=CCOC1C[C@@H](C(=O)NC(C)(C)C)N(C(=O)[C@@H](O)[C@H](Cc2ccccc2)NC(=O)[C@H](CS(C)(=O)=O)NC(=O)COc2cccc3ccccc23)C1 |  |  | 0.05 µM | inhibition |  | 29.4%
CC(C)C[C@H](NC(=O)CCCCCCCCCCCCCCC(=O)N[C@@H](CC(N)=O)C(=O)N[C@@H](Cc1ccccc1)C(=O)O)C(=O)N[C@@H](CC(C)C)C(=O)N[C@@H](Cc1ccccc1)C(N)=O |  |  |  | IC50 |  | 0.87 µM
CC(C)COC(=O)[C@H](Cc1ccc(O)cc1)NC(=O)C(=O)N[C@@H](Cc1ccc(O)cc1)C(=O)OCC(C)C |  | absorbance | 10 µM | inhibition |  | 27%
CC(C)CN(C[C@@H](O)[C@H](Cc1ccccc1)NC(=O)O[C@H]1CO[C@H]2OCC[C@H]21)S(=O)(=O)c1ccc2c(c1)/C(=C/N(C)C)C(=O)N2 | HXB2 | substrate cleavage |  | Ki |  | <0.0001 µM
CC(C)C[C@H](NC(=O)[C@@H](NC(=O)CCCCCCCCCCCCCCC(=O)N[C@@H](CC(N)=O)C(=O)N[C@@H](Cc1ccccc1)C(=O)O)C(C)O)C(=O)N[C@@H](Cc1ccc(-c2ccccc2)cc1)C(N)=O |  |  |  | fold resistance | PR-L10I K45R I54V L63P A71V V82T L90M I93L | ~1
CC(C)CN(C[C@@H](O)[C@H](Cc1ccccc1)NC(=O)O[C@H]1CO[C@H]2OCC[C@H]21)S(=O)(=O)c1ccc(C(=O)O)cc1 |  | substrate cleavage / fluorescence |  | Ki |  | 0.0000129 µM
COC(=O)[C@H](Cc1ccccc1)NC(=O)CC(=O)N[C@@H](Cc1ccccc1)C(=O)OC |  | absorbance | 10 µM | inhibition |  | 28%
CC(C)C[C@H](NC(=O)[C@@H](NC(=O)CCCCCCCCCCCCCCC(=O)N[C@@H](CC(N)=O)C(=O)N[C@@H](Cc1ccccc1)C(=O)O)C(C)C)C(=O)N[C@@H](Cc1ccccc1)C(N)=O |  |  |  | IC50 |  | 1.32 µM
O=C(NCC(F)(F)F)[C@@H]1O[C@]2(c3ccccc3)CN(C(c3ccccc3)c3ccccc3)C(=O)[C@H]1O2 |  | FRET | 10 µM | inhibition |  | 0%
CC(C)CN(C[C@@H](O)[C@H](Cc1ccccc1)NC(=O)O[C@H]1CO[C@H]2OCC[C@H]21)S(=O)(=O)c1ccc2[nH]c(O)c(C=NCc3nc4ccccc4[nH]3)c2c1 |  | substrate cleavage |  | Ki | L10 L24 M36 I54 L63 A71 V82 I84 | <0.0001 µM
CC(C)(C)c1cc2c(O)c(c1)Cc1cc(C(C)(C)C)cc3c1OCCOc1ccc4ccccc4c1C=NCCCCN=Cc1c(ccc4ccccc14)OCCOc1c(cc(C(C)(C)C)cc1Cc1cc(C(C)(C)C)cc(c1O)C3)C2 |  | FRET / fluorescence |  | Ki |  | 90 µM
CC(C)C[C@H](NC(=O)[C@@H](NC(=O)CCCCCCCCCCCCCCC(=O)N[C@@H](CCS(C)(=O)=O)C(=O)N[C@@H](Cc1ccccc1)C(=O)O)C(C)O)C(=O)N[C@@H](Cc1ccccc1)C(N)=O |  |  |  | IC50 |  | 5.3 µM
CCCC[C@H](NC(=O)C(=O)N[C@@H](CCCC)C(=O)OCC(C)C)C(=O)OCC(C)C |  | absorbance | 10 µM | inhibition |  | 35%
CC(C)[C@H](NC(=O)[C@H](C)NC(=O)c1cccnc1)C(=O)N[C@@H](Cc1ccccc1)C(O)C(O)[C@H](Cc1ccccc1)NC(=O)[C@@H](NC(=O)[C@H](C)NC(=O)c1cccnc1)C(C)C |  |  |  | fold resistance | PR-V82F | 0.935
CC(C)[C@H](N)C(=O)N[C@H](C(=O)N[C@@H](Cc1ccccc1)[C@@H](O)C(=O)N[C@@H](Cc1ccccc1)C(=O)N[C@H](C(=O)N[C@H](C(N)=O)C(C)C)C(C)C)C(C)C |  |  | 5 µM | inhibition |  | 94.4%
O=C1[C@H]2O[C@@H](CN1Cc1ccccc1)O[C@H]2C(=O)N1CCCNCC1 |  | FRET | 10 µM | inhibition |  | 0%
CC(C)(C)NC(=O)[C@H]1N(C(=O)[C@@H](O)[C@H](Cc2ccccc2)NC(=O)[C@H](CSN)NC(=O)COc2cccc(-c3ccccc3)c2)CSC1(C)C |  |  |  | IC50 |  | <0.05 µM
CC(C)C[C@H](NC(=O)[C@@H]1C[C@@H](O)CN1C(=O)CCCCCCCCCCCCCCC(=O)N[C@@H](CC(N)=O)C(=O)N[C@@H](Cc1ccccc1)C(=O)O)C(=O)N[C@@H](Cc1ccccc1)C(N)=O |  |  |  | IC50 |  | >5.5 µM
CCC(C)C(CO)NC(=O)[C@@H]1CSCN1C(=O)[C@@H](O)[C@H](Cc1ccccc1)NC(=O)[C@H](CS(C)(=O)=O)NC(=O)COc1cccc2ccccc12 |  |  | 0.05 µM | inhibition |  | >90%
CC(C)C[C@H](NC(=O)[C@@H]1CCCN1C(=O)CCCCCCCCCCCCCCC(=O)N[C@@H](CC(N)=O)C(=O)N[C@@H](Cc1ccccc1)C(=O)O)C(=O)N[C@@H](Cc1ccccc1)C(N)=O |  |  |  | IC50 |  | 5.5 µM
CON[C@H](C(=O)NC(=O)[C@H]1N(C(=O)[C@@H](O)[C@H](Cc2ccccc2)NC(=O)[C@@H](NC(=O)[C@H](Cc2ccccc2)NC(C)=O)C(C)C)CSC1(C)C)C(C)C |  |  |  | fold resistance | PR-V82F | 2.29
CC(C)C[C@H](NC(=O)[C@@H](NC(=O)CCCCCCCCCCCCCCC(=O)N[C@@H](CC(N)=O)C(=O)N[C@@H](Cc1ccccc1)C(=O)O)C(C)O)C(=O)N[C@@H](Cc1cc(I)c(Oc2cc(I)c(O)c(I)c2)c(I)c1)C(N)=O |  |  |  | fold resistance | PR-L10I K45R I54V L63P A71V V82T L90M I93L | ~1
CC(C)(C)c1cc2c(O)c(c1)Cc1cc(C(C)(C)C)cc3c1OCCOc1ccc4ccccc4c1C=Nc1ccccc1N=Cc1c(ccc4ccccc14)OCCOc1c(cc(C(C)(C)C)cc1Cc1cc(C(C)(C)C)cc(c1O)C3)C2 |  | FRET / fluorescence |  | Ki |  | 65 µM

Repeating the first 5 entries:

structure	strain or isolate	method	dose	endpoint	mutations	result
CC(C)[C@H](NC(=O)[C@H](C)NC(=O)[C@H](CO)NC(=O)OCc1ccccc1)C(=O)N[C@@H](Cc1ccccc1)[C@@H](O)[C@H](O)[C@H](Cc1ccccc1)NC(=O)[C@@H](NC(=O)[C@H](C)NC(=O)[C@H](CO)NC(=O)OCc1ccccc1)C(C)C				fold resistance	PR-V82F	3.41
CC(C)[C@H](NC(=O)[C@H](C)NC(=O)OCc1ccccc1)C(=O)N[C@@H](Cc1ccccc1)[C@@H](O)[C@H](O)[C@H](Cc1ccccc1)NC(=O)[C@@H](NC(=O)[C@H](C)NC(=O)OCc1ccccc1)C(C)C				fold resistance	PR-V82F	4
CC(C)COC(=O)C(Cc1ccncc1)NC(=O)C(=O)NC(Cc1ccncc1)C(=O)OCC(C)C		absorbance	10 µM	inhibition		<10%
Nc1cccc(C(=O)N[C@H](Cc2ccccc2)C[C@H](O)[C@H](Cc2ccccc2)NC(=O)c2cccc(N)c2)c1		substrate cleavage		fold resistance	PR-V821	16
Cc1cccc(OCC(=O)N[C@@H](CC(N)=O)C(=O)N[C@@H](Cc2ccccc2)[C@H](O)C(=O)N2CSC(C)(C)[C@H]2C(=O)NC(C)(C)C)c1C			0.05 µM	inhibition		97.1%